Data taken from patent publication US8895613B2 (priority 2013, dated 2014).

Tests used:
[1] = system: highly pathogenic strain Ia/duck/MN/1525/81 (H5N1); format: cell-based, influenza virus Ia/duck/MN/1525/81 (H5N1) in MDCK cells
[2] = biological target: neuraminidase of influenza virus B/Pert/211/2001 (197D) (Influenza B virus, UniProt Q3S340); format: biochemical; conditions: read-out: IC50, nM (number of experiments)

For `CCC(CC)O[C@@H]1C=C(C(=O)O)C[C@H](N)[C@H]1NC(C)=O` [A2, (3R,4R,5S)-5-amino-4-acetamido-3-(pentan-3-yloxy)cyclohex-1-enecarboxylic acid, reference compound], which “IC50(Zan)/IC50(1.1)” value [1] is on record?
The value was 24.2.

What about the IC50 [2] of the same molecule?
The IC50 was 39.2 nM.
